Values from PubChem BioAssay AID1259414 (Drosophila RNAi Screening Center, 2018)

Test: 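Fly genes that alter Wolbachia amount inside host cells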 (primary screen)
System: Drosophila JW18 cells infected with Wolbachia
Knock-down reagent: long dsRNA against Drosophila genes, 0.25 µg dsRNA per well of a 384-well plate
Time to read-out: 5 days
Conditions: cells persistently infected with Wolbachia before knock-down; no added drug
Measurement: 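Imaged fluorescence in situ signal for Wolbachia 23S rRNA per DAPI-counted host cell, given as a robust z-score within each plate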
Reading the numbers: Wolbachia per cell robust z: higher = more Wolbachia per host cell than the plate typical
Active means: 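Active if absolute robust z reaches 1.5 in two or more of three replicates, leaving out multi- or no-target dsRNAs, genes unexpressed in JW18 and A1 wells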
In all, the deposit lists about 24,000 reagents; shown is a random part of those that have a named target and a result. Of all reagents, about 1,210 (5%) got an active call. 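Inactive calls also include excluded dsRNAs with several or no targets, genes unexpressed in JW18, and well A1, regardless of score.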 Reagents against one gene are numbered here. No sequences are given here.

mle → Wolbachia per cell robust z, rep 1 = 0.369; Wolbachia per cell robust z, rep 2 = 0.19; Wolbachia per cell robust z, rep 3 = 0.902; Call = inactive
Galphas → Wolbachia per cell robust z, rep 1 = 0.26; Wolbachia per cell robust z, rep 2 = 0.0215; Wolbachia per cell robust z, rep 3 = -0.829; Call = inactive
CG31730 → Wolbachia per cell robust z, rep 1 = -1.99; Wolbachia per cell robust z, rep 2 = -1.87; Wolbachia per cell robust z, rep 3 = -1.42; Call = inactive
TwdlW #1 → Wolbachia per cell robust z, rep 1 = 0.577; Wolbachia per cell robust z, rep 2 = 0.26; Wolbachia per cell robust z, rep 3 = -0.0849; Call = inactive
TwdlW #2 → Wolbachia per cell robust z, rep 1 = -0.701; Wolbachia per cell robust z, rep 2 = 1.07; Wolbachia per cell robust z, rep 3 = 0.322; Call = inactive
CG1640 → Wolbachia per cell robust z, rep 1 = 0.635; Wolbachia per cell robust z, rep 2 = -7.69; Wolbachia per cell robust z, rep 3 = -0.904; Call = inactive
CCAP → Wolbachia per cell robust z, rep 1 = -1.24; Wolbachia per cell robust z, rep 2 = -1.99; Wolbachia per cell robust z, rep 3 = 0.422; Call = inactive
Npc2b → Wolbachia per cell robust z, rep 1 = 1.22; Wolbachia per cell robust z, rep 2 = 0.918; Wolbachia per cell robust z, rep 3 = 0.76; Call = inactive
Vm26Ac #1 → Wolbachia per cell robust z, rep 1 = -3.07; Wolbachia per cell robust z, rep 2 = 0.705; Wolbachia per cell robust z, rep 3 = -5.7; Call = inactive
Vm26Ac #2 → Wolbachia per cell robust z, rep 1 = 1.05; Wolbachia per cell robust z, rep 2 = -0.223; Wolbachia per cell robust z, rep 3 = 0.387; Call = inactive
Naxe → Wolbachia per cell robust z, rep 1 = -6.05; Wolbachia per cell robust z, rep 2 = -7.27; Wolbachia per cell robust z, rep 3 = -2; Call = active
Xbp1 #1 → Wolbachia per cell robust z, rep 1 = -1.63; Wolbachia per cell robust z, rep 2 = 0.941; Wolbachia per cell robust z, rep 3 = 0.884; Call = inactive
Xbp1 #2 → Wolbachia per cell robust z, rep 1 = -0.314; Wolbachia per cell robust z, rep 2 = -0.213; Wolbachia per cell robust z, rep 3 = -0.132; Call = inactive
ng3 #1 → Wolbachia per cell robust z, rep 1 = -1.34; Wolbachia per cell robust z, rep 2 = -0.46; Wolbachia per cell robust z, rep 3 = -0.307; Call = inactive
ng3 #2 → Wolbachia per cell robust z, rep 1 = -1.05; Wolbachia per cell robust z, rep 2 = 1.95; Wolbachia per cell robust z, rep 3 = -0.0356; Call = inactive
Uch-L5 #1 → Wolbachia per cell robust z, rep 1 = 0.179; Wolbachia per cell robust z, rep 2 = -0.438; Wolbachia per cell robust z, rep 3 = 0.477; Call = inactive
Uch-L5 #2 → Wolbachia per cell robust z, rep 1 = 0.168; Wolbachia per cell robust z, rep 2 = 1.13; Wolbachia per cell robust z, rep 3 = 0.185; Call = inactive

2 entries from above, arranged by “Wolbachia per cell robust z, rep 1”, descending:
Xbp1 #2 → Wolbachia per cell robust z, rep 1 = -0.314; Wolbachia per cell robust z, rep 2 = -0.213; Wolbachia per cell robust z, rep 3 = -0.132; Call = inactive
ng3 #1 → Wolbachia per cell robust z, rep 1 = -1.34; Wolbachia per cell robust z, rep 2 = -0.46; Wolbachia per cell robust z, rep 3 = -0.307; Call = inactive
